## Screening data, single-dose tests

Source: ChEMBL document CHEMBL3988442, “University of Dundee, Small-Polar-MMV Screening Library” (2021).

Values are the deposited “Percent Effect”, in %.
The record does not define 0% and 100%; most values in the screen are far below 50% and negative numbers occur (in some assays of this library far below -100).
The entries come from a sample that favours strong results.
A dash means the value is not listed here; it may have been measured.

Mtb cholesterol medium: 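Phenotypic screen: M. tuberculosis growth, cholesterol and DPPC medium, 4 days; the read-out is not stated. Concentration: 500 µM. The record gives no direction; compounds that gave an IC50 in retests scored well above the rest, so higher reads as more growth inhibition. Of about 18,000 compounds tested this way, about 900 (5%) reached 50% or more in at least one test.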
Mtb glucose medium: 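Growth of Mycobacterium tuberculosis over 3 days (7H9 medium with glucose and tyloxapol); the read-out is not stated. Concentration: 500 µM. Direction is inferred from retests: higher values go with more growth inhibition. About 18,000 compounds were tested under these conditions; 7.9% (about 1,400) showed 50% or more at least once.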

SMILES,Mtb cholesterol medium,Mtb glucose medium
CCN(CC)c1ccc(NC(=O)N(C)C)cn1,-9.388,4.538
COCCNC(C)C(N)=O (stereo unspecified),-,-9.757
CCn1ccc(C(=O)NCc2ccco2)n1,67.85,48.51
Cc1cc(C(=O)N2CCN[C@H](C)C2)n[nH]1,-,9.843
Cc1cc(Br)oc1C(=O)N1CCOC(C)C1 (stereo unspecified),-,27.6
NCC(NS(=O)(=O)CCc1cccs1)C1CC1 (stereo unspecified),-,57.5
Cc1cccn(Cc2nc(-c3ccccn3)no2)c1=O,-,4.493
COCCn1c(SCC(=O)NC(N)=O)nc(C)c1C,4.549,-
Cc1ccsc1CNC(=O)Cn1cnc(C#N)c1C#N,-,7.847
CSc1c(F)cc(NC(=O)NCCO)cc1F,41.7,50.24
NC(=O)CCN1CCCC1c1ccsc1 (stereo unspecified),-,18.63
CS(=O)(=O)NCC(=O)NC(C#N)c1ccc(Cl)c(Cl)c1 (stereo unspecified),-7.341,-
NCCc1cnn(-c2ccccc2)c1,62.94,70.22
Cn1ccnc1CN1CCN(C2=NCC(C)(C)S2)CC1,-,0.05506
O=C(COCC(F)(F)F)NCc1ccccn1,-,41.3
O=S1(=O)CC(CO)c2ccccc21 (stereo unspecified),8.471,7.987
CN(CC1COc2ccccc2O1)C(=O)C1CCC1 (stereo unspecified),91.31,88.23
CCc1nn2c(=O)cc(CN(CC)CC)nc2s1,-,8.773
Cc1cc(C(=O)Nc2cccc(C[S+](C)[O-])c2)on1 (stereo unspecified),-10.22,-
COCCc1nc(CCC(F)(F)F)n(CCO)n1,-,1.681
COCc1cc(CNC(=O)c2sc(N)nc2C)n[nH]1,-,0.5694
CC(=O)Nc1cccc(CN(C)S(=O)(=O)C(C)C)c1,-,-7.572
O=C(COC(=O)c1cccs1)c1ccc[nH]1,109,78.86
O=C(CSc1cnn[nH]1)Nc1ccncc1,7.139,30.91
O=C(Nc1nnc(-c2ccccn2)s1)N1CC[C@@H](O)C1,-,-2.959
COC(=O)C1CCCCN1C(=O)c1cccn1C (stereo unspecified),-,16.84
CC(C)n1cc(Br)cc1C(=O)NC1=NCCS1,71.15,68.02
CCC(CC#N)NCc1cccnc1C (stereo unspecified),-,-1.293
CNC(=O)NC(=O)CSc1ccccc1F,-,51.51
Nc1c(NCc2ccncc2)ncnc1-n1cccn1,-,36.46
COc1ccc(NC(=O)NC2CCNC2=O)c(C)c1 (stereo unspecified),-0.5742,-
CCC(CNC(=O)C1=NN(C)C(=O)CC1)N1CCCC1 (stereo unspecified),-,8.968
Cn1ccnc1C1CCCN1C(=O)c1ccccc1F (stereo unspecified),-,2.557
NC(=O)c1ccc(-c2nc(C3CCCC3)no2)o1,71.63,69.8
COc1ncccc1C(=O)NCCc1cccs1,62.18,71.19
Cc1cc(C)n(CC(=O)NCc2ccc(F)cc2)n1,-,64.96
CCS(=O)(=O)NCCOc1ccc2c(c1)OCO2,54.58,60.4
CS(=O)(=O)CCSCC(=O)Nc1ccccc1,-,11.54
Cc1ccncc1N1CCNCC1,1.029,-
Cc1nnc(CCNC(=O)[C@@H](N)C(C)(C)C)s1,-,-7.612
O=C(NCCC1=CCCCC1)NC1CCS(=O)(=O)C1 (stereo unspecified),4.535,-
CCn1ncc(N)c1C,-,13.96
COc1ccnc(N2CCC(c3nncn3C)CC2)n1,-,18.86
Cc1ccc(S(=O)(=O)NC2CC[S+]([O-])CC2)cc1F (stereo unspecified),-,7.856
O=S(=O)(CCN1CC[C@@H](O)C1)c1cccc(Br)c1,87.19,93.1
CN(C)S(=O)(=O)NCc1ccccc1CO,-,18.03
Cc1nn(C)c(C)c1C(C)NC(=O)CN1CCCC1 (stereo unspecified),-0.4978,-
COC(=O)COc1ccc2c(c1)OCO2,66.68,43.17
COc1ccc(N2CCCN(CCC(N)=O)CC2)cc1,-,61.43
CNc1nnc(-c2ccccc2)s1,32.27,60.59
N[C@@H]1CCOc2cc(F)ccc21,-,33.88
O=C(CCn1nc2ccccn2c1=O)N1CCNCC1,-,22.54
OC1CCN(Cc2ccccc2F)CC1,2.448,-
CN1CCC(C)(CN)CC1,-,-12.46
Cc1cccnc1CCN,-,4.701
CC(C)(C)NC(=O)CNC1CCCc2occc21 (stereo unspecified),27.7,-
Clc1cc2c(c(CN3CCNCC3)c1)OCC2,4.568,-
Cc1onc(N)c1S(=O)(=O)NCc1ccccc1Cl,-,52.91
Cc1ccc(C)c(OCC(=O)NCC[S+](C)[O-])c1 (stereo unspecified),-,13.75
CN(Cc1ccc(S(C)(=O)=O)cc1)CC1COCCO1 (stereo unspecified),0.8498,-
CNC(=O)c1cccc(NCc2nc(C)cs2)n1,-20.63,-11.86
CCn1cc(C(=O)NCc2nnc(C(C)C)n2C)cn1,-,2.762
CC(C1CCN(Cc2ncc[nH]2)CC1)N1CCOCC1 (stereo unspecified),-,-4.285
CN(C)CCOc1cc(N)ccn1,-,7.661
CC(C)(C)N(CCS(C)(=O)=O)C(=O)c1ccncc1F,-,-3.02